Compound potency records, mixed from different reports. Data source: NIAID ChemDB in PubChem.

Shared fields: toxicity to cultured cells; cells: TZM-bl; endpoint: CC50

Lines come from different laboratories, so protocols vary.

Cc1ccnc2c1NC(=O)c1cccnc1N2C1CC1 ; read by: XTT / absorbance ; value: >300 µM
CC(Cl)C1(c2ccc(Cl)cc2)OC(=O)c2ccccc21 ; read by: MTT ; value: 201 µM
Cc1ccc(C)c2c1[nH]c1c(Cl)cccc12 ; value: 13.6 µM
CCCC(Cl)C1(c2ccc(F)cc2)OC(=O)c2ccccc21 ; read by: MTT ; value: 252 µM
CC[C@H]1CC[C@@H](O)[C@@H](OC)CCCC[C@@H](c2ccccc2)OC(=O)[C@@H](C)[C@@]2(O)O[C@@H]1[C@@H](C)[C@H](O)[C@H]2OC ; value: 5.02 µM
O=C(O)c1ccc(C2=N/C(=C/c3c(O)n(CCc4ccccc4)c(=S)[nH]c3=O)C=C2)cc1O ; read by: XTT ; value: >20 µM
CCCCCOC(=O)C[C@H](NP(=O)(CO[C@@H](CF)Cn1ccc2c(=O)[nH]c(N)nc21)N[C@@H](CC(=O)OCCCCC)C(=O)OCCCCC)C(=O)OCCCCC ; read by: luminescence ; value: 8.94 µM
c1cc(CN2CCCNCCNCCCNCC2)ccc1CN1CCCNCCNCCCNCC1 ; value: >10 µM
CC/C=C(\C)C[C@H](C)[C@H](O)[C@@H](C)[C@H]1O[C@@]2(C[C@@H](OC)[C@H]1C)O[C@H]([C@@H](C)[C@@H](O)[C@@H](C)/C=C/C=C/C=C/C=C/C=C/[C@@H](CC(=O)O)OC)[C@@H](C)C[C@@H]2O ; value: 0.35 µM
Cc1cc(N)c(C)c2c1[nH]c1cc(Cl)ccc12 ; value: 37.9 µM
O=C1OC(C(Cl)c2ccccc2)c2ccccc21 ; read by: MTT ; value: 293 µM
Cc1ccnc2c1NC(=O)c1cccnc1N2C1CC1 ; value: 81.8 µM
O=C(O)c1ccc(-c2ccc(/C=C3/SC(=S)N(Cc4ccc(Cl)cc4)C3=O)[nH]2)cc1O ; read by: XTT ; value: >20 µM
Cc1cn([C@H]2C[C@H](N=[N+]=[N-])[C@@H](CO)O2)c(=O)[nH]c1=O ; read by: XTT ; value: >0.2 µM
CCC(=C/[C@H](C)C/C=C/C(C)=C/[C@@H](C)C(=O)[C@@H](C)[C@H](O)[C@@H](C)C/C(C)=C/C(=O)O)/C=C/[C@@H]1OC(=O)C=C[C@@H]1C ; read by: ATP / luminescence ; value: 0.016 µM
CC(Cl)C1(c2ccc(F)cc2)OC(=O)c2ccc(Cl)cc21 ; read by: MTT ; value: 247 µM
CCCCCOC(=O)C[C@H](NP(=O)(CO[C@H](CF)COc1nccc(N)n1)Oc1ccccc1)C(=O)OCCCCC ; read by: luminescence ; value: 43.21 µM
O=C1O[C@](CCl)(c2ccccc2)c2ccccc21 ; read by: MTT ; value: 293 µM
CCCCCOC(=O)C[C@H](NP(=O)(COC(CF)Cn1ccc(N)nc1=O)Oc1ccccc1)C(=O)OCCCCC ; read by: visual reading ; value: 54.19 µM

A second listing of 2 rows from above:

compound	read by	value
CC(Cl)C1(c2ccc(Cl)cc2)OC(=O)c2ccccc21	MTT	201 µM
CC(Cl)C1(c2ccc(F)cc2)OC(=O)c2ccc(Cl)cc21	MTT	247 µM

CCn is the concentration with n% toxicity to the cells.